Compound potency records, mixed from different reports. Data source: NIAID ChemDB in PubChem.

Shared fields: tests in culture; agent: HIV-1; read by: luciferase; endpoint: EC50

Conditions beyond the fields shown may differ between rows.

Cc1ccnc2c1NC(=O)c1cccnc1N2C1CC1 ; cell line: HEK293T ; strain or isolate: 94ug114.1.6 ; value: 153.8 nM
O=C(C(=O)N1CCN(C(=O)c2c(S)cccc2Cl)CC1)c1c[nH]c2cccc(F)c12 ; cell line: HeLa + HELA CD4+/CCR5 ; value: <10 µM
Cc1ccc(NC(=O)CSc2nnc(C)n2-c2ccc(F)cc2)c(Cl)c1 ; cell line: HeLa + HeLa-JC53 ; mutations: RT-K103N Y181C ; strain or isolate: NL4-3 ; value: >10 µM
COc1ccc(N(C)C(=O)[C@H](Cc2ccccc2)NC(=O)C(C)(C)C(=O)N[C@@H](Cc2ccccc2)C(=O)N(C)c2ccc(OC)cc2)cc1 ; cell line: MT-2 ; strain or isolate: NL4-3 ; value: 1.87 µM
C[C@H]1CN(C(=O)c2ccccc2)CCN1C(=O)C(=O)c1c[nH]c2ccc(F)cc12 ; cell line: HeLa + HELA CD4+/CCR5 ; value: <10 µM
Cc1ccc(NC(=O)CSc2nnc(C)n2-c2cc(C)c(C)c3ccccc23)c(Cl)c1 ; cell line: HeLa + HeLa-JC53 ; mutations: RT-Y188L ; strain or isolate: NL4-3 ; value: 0.16 µM
Nc1c(C(=O)NCc2ccc(F)cc2F)c(=O)n(O)c2ncc(CCCCCCO)cc12 ; cell line: HOS ; mutations: AGT (GGGAGT) ; value: <0.001 µM
COc1ccc(N(C)C(=O)[C@H](Cc2ccccc2)NC(=O)Cn2c(=O)c3ccccc3c(=O)n2CC(=O)N[C@@H](Cc2ccccc2)C(=O)N(C)c2ccc(OC)cc2)cc1 ; cell line: MT-2 ; strain or isolate: NL4-3 ; value: 0.29 µM
O=C(C(=O)N1CCN(C(=O)c2cccc(S)c2)CC1)c1c[nH]c2cccc(F)c12 ; cell line: HeLa + HELA CD4+/CCR5 ; value: <10 µM
Cc1cc2c(C)cccc2c(-n2c(C)nnc2SCC(=O)Nc2ccccc2Br)c1C ; cell line: HeLa + HeLa-JC53 ; mutations: RT-Y188L ; strain or isolate: NL4-3 ; value: 0.16 µM
COc1ccc(N(C)C(=O)[C@H](Cc2cc(F)cc(F)c2)NC(=O)Cn2c(=O)c(=O)n(CC(=O)N[C@@H](Cc3cc(F)cc(F)c3)C(=O)N(C)c3ccc(OC)cc3)c3ccccc32)cc1 ; cell line: MT-2 ; strain or isolate: NL4-3 ; value: 0.03 µM
C[C@@H]1CCO[C@H]2Cn3cc(C(=O)NCc4ccc(F)cc4F)c(=O)c(O)c3C(=O)N12 ; cell line: HOS ; mutations: AGT (GGGAGT) ; value: <0.001 µM
COc1ccc(N(C)C(=O)[C@H](Cc2ccccc2)NC(=O)c2cccc(S(=O)(=O)N[C@@H](Cc3ccccc3)C(=O)N(C)c3ccc(OC)cc3)c2)cc1 ; cell line: MT-2 ; strain or isolate: NL4-3 ; value: 0.72 µM
C#C[C@@]1(COP(=O)(O)OP(=O)(O)OP(=O)(O)O)C=C[C@H](n2cc(C)c(=O)[nH]c2=O)O1 ; cell line: TZM-bl ; mutations: P119S/T165A/M184V ; strain or isolate: NL4-3 ; value: 4.9 µM
COc1cnc(-n2cnc(C)n2)c2[nH]cc(C(=O)C(=O)N3CCN(C(=O)c4ccccc4)CC3)c12 ; cell line: U-87 ; mutations: M426L ; strain or isolate: NL4-3 ; value: 0.0442 µM
N=C(c1ccccc1)N1CCN(C(=O)C(=O)c2c[nH]c3c(Br)ccc(F)c23)CC1 ; cell line: HeLa(CD4+) + HeLa ; strain or isolate: Luciferase reporter virus ; value: <0.5 µM
Cc1nnc(C(C)C)n1C1C[C@H]2CC[C@@H](C1)N2CC[C@H](NC(=O)C1CCC(F)(F)CC1)c1ccccc1 ; cell line: PBMC ; strain or isolate: NLAD8 ; value: 0.245 µM
CN(C(=O)[C@H](Cc1cc(F)cc(F)c1)NC(=O)NS(=O)(=O)N[C@@H](Cc1cc(F)cc(F)c1)C(=O)N(C)c1ccc2sc(=O)[nH]c2c1)c1ccc2sc(=O)[nH]c2c1 ; cell line: MT-2 ; strain or isolate: NL4-3 ; value: 0.45 µM
Cc1nc(C(=O)N2CCN(C(=O)C(=O)c3c[nH]c4cccc(Cl)c34)CC2)cs1 ; cell line: HeLa + HELA CD4+/CCR5 ; value: <10 µM
Nc1c(C(=O)NCc2ccc(F)cc2F)c(=O)n(O)c2ncc(CCS(=O)(=O)CCN3CCOCC3)cc12 ; cell line: HOS ; mutations: +G insertion (GGGGAGT) ; value: 0.1239 µM
COc1ccc(N(C)C(=O)[C@H](Cc2ccccc2)NC(=O)CN2CCN(CC(=O)N[C@@H](Cc3ccccc3)C(=O)N(C)c3ccc(OC)cc3)C2=O)cc1 ; cell line: MT-2 ; strain or isolate: NL4-3 ; value: 0.17 µM
Cc1ccc(-n2c(SCC(=O)Nc3ccc(C)cc3Br)nnc2C(C)C)cc1 ; cell line: HeLa + HeLa-JC53 ; mutations: RT-K103N Y181C ; strain or isolate: NL4-3 ; value: >10 µM
COc1ccc(N(C)C(=O)[C@H](Cc2ccccc2)NC(=O)NS(=O)(=O)N[C@@H](Cc2ccccc2)C(=O)N(C)c2ccc3c(c2)OCO3)cc1 ; cell line: MT-2 ; strain or isolate: NL4-3 ; value: 0.08 µM
Cc1cc(S(N)(=O)=O)ccc1NC(=O)COc1ccc(Cl)cc1C(=O)c1cc(F)cc(C(F)(F)F)c1 ; cell line: HELA MAGI ; mutations: RT-E138K ; strain or isolate: IIIB ; value: 0.003 µM
C[C@@H]1CN(C(=O)c2ccccc2)CCN1C(=O)C(=O)c1c[nH]c2c(F)c(F)c(F)c(F)c12 ; cell line: HeLa + HELA CD4+/CCR5 ; value: <10 µM
COc1ccc(N(C)C(=O)[C@H](Cc2ccccc2)NC(=O)c2cccc(C(=O)N[C@@H](Cc3ccccc3)C(=O)N(C)c3ccc(OC)cc3)c2)cc1 ; cell line: MT-2 ; strain or isolate: NL4-3 ; value: 0.09 µM
CCOC(=O)C1CN(C(=O)c2ccccc2)CCN1C(=O)C(=O)c1c[nH]c2c(C(=O)OC)cccc12 ; cell line: HeLa + HELA CD4+/CCR5 ; value: <10 µM
Cc1ccc2c(-n3c(C)nnc3SCC(=O)Nc3ccccc3Br)ccc(C)c2c1 ; cell line: HeLa + HeLa-JC53 ; mutations: RT-Y188L ; strain or isolate: NL4-3 ; value: 0.15 µM
O=C(C(=O)N1CCN(C(=NCCOCCO)c2ccccc2)CC1)c1c[nH]c2cccc(F)c12 ; cell line: HeLa(CD4+) + HeLa ; strain or isolate: Luciferase reporter virus ; value: >0.5 µM
Cc1ccc2c(C)cc(C)c(-n3c(SCC(=O)Nc4ccc(S(N)(=O)=O)cc4Cl)nnc3C(F)(F)F)c2n1 ; cell line: HeLa + HeLa-JC53 ; mutations: RT-Y188L ; strain or isolate: NL4-3 ; value: 0.004 µM
C[C@H]1CN(C(=NC#N)c2ccccc2)CCN1C(=O)C(=O)c1c[nH]c2c(-c3cc4ccccc4s3)ccc(F)c12 ; cell line: HeLa(CD4+) + HeLa ; strain or isolate: Luciferase reporter virus ; value: <0.5 µM
Nc1c(C(=O)NCc2ccc(F)cc2F)c(=O)n(O)c2ncc(CCCCCO)cc12 ; cell line: HOS ; value: <0.004 µM
O=C(C(=O)N1CCN(C(=NCCN2CCOCC2)c2ccccc2)CC1)c1c[nH]c2c(Br)ccc(F)c12 ; cell line: HeLa(CD4+) + HeLa ; strain or isolate: Luciferase reporter virus ; value: <0.5 µM
CC[C@]1(CO)O[C@@H](n2cnc3c(N)ncnc32)C[C@@H]1O ; cell line: HOS ; mutations: Q151M (delta)Env ; value: >0.52 µM
CCc1ncn(-c2ncc(OC)c3c(C(=O)C(=O)N4CCN(C(=NC#N)c5ccccc5)CC4)c[nH]c23)n1 ; cell line: HeLa(CD4+) + HeLa ; strain or isolate: Luciferase reporter virus ; value: <0.5 µM
Cc1ccc(NC(=O)CSc2nnc(C)n2-c2c(C)cc(C)c3ccccc23)c(Cl)c1 ; cell line: HeLa + HeLa-JC53 ; mutations: RT-Y188L ; strain or isolate: NL4-3 ; value: 0.09 µM

ECn: concentration that inhibits the pathogen or its effect by n%.